Measurements published in patent publication US20150218142A1, “Derivatives of Betulin” (GlaxoSmithKline LLC, priority 2011, published 2015).

Test system: HIV

Compound	Human Serum Fold Shift (40% human serum in a HIV multicell full life cycle assay) [X]	fold shift with human serum (human protein shift, human serum (HS)) [fold]	Fold shift with 40% HuS (LHIV IC50 with vs without 40% human serum) [fold]
CC(C)C1=C2[C@H]3CC[C@@H]4[C@@]5(C)CC[C@H](OC(=O)CC(C)(C)C(=O)O)C(C)(C)[C@@H]5CC[C@@]4(C)[C@]3(C)CC[C@@]2(C(=O)C(=O)N(CCN(C)C)Cc2ccc(Cl)cc2)CC1=O [Compound C]	48.9	48.9	
CC(C)C1=C2[C@H]3CC[C@@H]4[C@@]5(C)CC[C@H](OC(=O)CC(C)(C)C(=O)O)C(C)(C)[C@@H]5CC[C@@]4(C)[C@]3(C)CC[C@@]2(C(=O)C(=O)NC2(c3ncc(Cl)cn3)CC2)CC1=O [CompoundB]			13.4
